Measured values from several laboratories, pooled; numbers as filed in NIAID ChemDB.

All rows: tests in culture; agent: Vaccinia virus; cell line: VERO; read-out: EC50

An empty or dashed field is not shown. ECn is the concentration giving n% inhibition of infection, replication or growth. Conditions beyond the fields shown may differ between rows.

smiles,strain or isolate,result
CC(C)O[C@@H]1[C@H](OC(C)C)[C@@H](COS(=O)(=O)NC(=O)O[C@H]2O[C@H](COCc3ccccc3)[C@H](OCc3ccccc3)[C@H](OCc3ccccc3)[C@H]2OCc2ccccc2)O[C@H]1n1ccc(=O)[nH]c1=O,-,150 µg/mL
Nc1nc(=O)n([C@H]2C=C(F)[C@@H](CO)O2)cc1F,-,5 µM
O=c1[nH]cnc2c1ncn2[C@@H]1C=C(CO)[C@@H](O)[C@H]1O,VAC,>100 µg/mL
Nc1ccn([C@@H]2O[C@H](CO)[C@@H](O)[C@@H]2O)c(=O)n1,-,0.34 µM
CSc1ncnc2c1ncn2[C@@H]1C[C@H](CO)[C@@H](O)[C@H]1O,Lederle chorioallantoic,97 µg/mL
N=c1c2ncn([C@@H]3O[C@H](CO)[C@@H](O)[C@H]3O)c2ncn1OCc1cc(F)cc(F)c1,-,1.18 µg/mL
CC(C)O[C@@H]1[C@H](OC(C)C)[C@@H](COS(=O)(=O)NC(=O)O[C@H]2C[C@@H](OC(=O)c3ccccc3)[C@H](OC(=O)c3ccccc3)[C@@H](COC(=O)c3ccccc3)O2)O[C@H]1n1ccc(=O)[nH]c1=O,-,50 µg/mL
Cn1cc(CCCCOc2ccc(C3=NCCO3)cc2)cc1C=O,-,>280 µM
CC(=O)N[C@H]1[C@@H](OC(=O)NS(=O)(=O)OC[C@H]2O[C@@H](n3ccc(=O)[nH]c3=O)[C@H](OC(C)C)[C@@H]2OC(C)C)O[C@H](COC(C)=O)[C@@H](OC(C)=O)[C@@H]1OC(C)=O,-,>100 µg/mL
Nc1nccc2c1ncn2[C@@H]1C[C@H](CO)[C@@H](O)[C@H]1O,-,1.2 µg/mL
Nc1nc(=O)n([C@@H]2O[C@H](COP(=O)([O-])[O-])[C@@H](O)[C@H]2O)cc1F,-,9 µM
Nc1ncnc2c1ncn2C[C@@H](CO)OCP(=O)(O)O,-,7 µM
OC[C@H]1O[C@@H](n2nnc3c(Cl)nccc32)[C@H](O)[C@@H]1O,-,>370 µM
CC(C)O[C@@H]1[C@H](OC(C)C)[C@@H](COS(=O)(=O)NC(=O)O[C@@H]2C[C@@H](OC(=O)c3ccccc3)[C@H](OC(=O)c3ccccc3)[C@@H](COC(=O)c3ccccc3)O2)O[C@H]1n1ccc(=O)[nH]c1=O,-,75 µg/mL
Nc1nc(=O)n([C@@H]2C=C(CO)[C@@H](O)[C@H]2O)cc1F,VAC,1.46 µg/mL
Nc1ccn([C@@H]2C[C@H](CO)[C@@H](O)[C@H]2O)c(=O)n1,Lederle chorioallantoic,9 µg/mL
OC[C@H]1O[C@@H](n2nnc3c(Cl)nccc32)C[C@@H]1O,-,>368 µM
CC(=O)OC[C@H]1O[C@H](OC(=O)NS(=O)(=O)OC[C@H]2O[C@@H](n3ccc(=O)[nH]c3=O)[C@H](OC(C)C)[C@@H]2OC(C)C)[C@H](OC(C)=O)[C@@H](OC(C)=O)[C@@H]1OC(C)=O,-,>100 µg/mL
OC[C@H]1O[C@@H](n2nnc3ccnc(Cl)c32)C[C@@H]1O,-,>368 µM
CCOC(=O)c1ccc(OCCCCc2cc(C=O)n(C)c2)cc1,-,>55 µM
O=C(NS(=O)(=O)OC[C@H]1O[C@@H](n2ccc(=O)[nH]c2=O)[C@H](O)[C@@H]1O)O[C@H]1O[C@H](COC(=O)c2ccccc2)[C@@H](OC(=O)c2ccccc2)[C@H](OC(=O)c2ccccc2)[C@H]1OC(=O)c1ccccc1,-,25 µg/mL
CC(=O)OC1C(OC(C)=O)[C@@H](COS(=O)(=O)NC(C)C)O[C@H]1n1ccc(=O)[nH]c1=O,-,101 µg/mL
CCCCCCCCCCCCCCCC(=O)OC[C@H]1O[C@H](OC(=O)NS(=O)(=O)OC[C@H]2O[C@@H](n3ccc(=O)[nH]c3=O)[C@H](OC(C)C)[C@@H]2OC(C)C)[C@H](OC(=O)CCCCCCCCCCCCCCC)[C@@H](OC(=O)CCCCCCCCCCCCCCC)[C@@H]1OC(=O)CCCCCCCCCCCCCCC,-,>100 µg/mL
Nc1nccc2c1ncn2[C@@H]1C[C@H](CO)[C@@H](O)[C@H]1O,Lederle chorioallantoic,1.9 µg/mL
Nc1nccc2c1nnn2[C@H]1C[C@H](O)[C@@H](CO)O1,-,>396 µM
CC(C)O[C@@H]1[C@H](OC(C)C)[C@@H](COS(=O)(=O)NC(=O)O[C@H]2O[C@H](COC(=O)c3ccccc3)[C@H](OC(=O)c3ccccc3)[C@H](OC(=O)c3ccccc3)[C@H]2OC(=O)c2ccccc2)O[C@H]1n1ccc(=O)[nH]c1=O,-,46 µg/mL

A second listing of 2 rows from above:

smiles	strain or isolate	result
CSc1ncnc2c1ncn2[C@@H]1C[C@H](CO)[C@@H](O)[C@H]1O	Lederle chorioallantoic	97 µg/mL
Nc1nc(=O)n([C@@H]2O[C@H](COP(=O)([O-])[O-])[C@@H](O)[C@H]2O)cc1F	-	9 µM